Assay results taken from patent US20220072149A1, “BIOLOGICALLY ACTIVE CLUSTER OF MOLECULES” (priority 2018, published 2022).

Assays:
human A431 tumor cells = test: A431 xenograft tumor model: ADC combined with cetuximab-SO1861 conjugate; assay type: in vivo, mouse; conditions: A431 xenograft in Balb/c nude mice, sub-optimal ADC dose
Experimental: Female Balb/c nude mice were injected subcutaneously with a suspension of human A431 tumor cells.
Under the skin of the mice, a human epidermal carcinoma developed in the xenograft animal tumor model. After injection of the tumor cells, the xenograft tumor was allowed to develop to a size of approximately 170-180 mm^3. The A431 tumor cells have the following characteristics: high EGFR expressors, medium CD71 expressors, low HER2 expressors.
In Table A, the results of the treatment of control mice and tumor-bearing mice are presented. Tumor-bearing mice were treated with the indicated antibodies directed to either human Her2/neu, human EGFR, or human CD71, which are cell-surface receptors on the xenograft tumor. Cetuximab was covalently conjugated with saponin SO1861. […] The ADCs trastuzumab-saporin (covalent conjugate) and anti-CD71 mAb (OKT-9, IgG)—saporin (covalent conjugate) were tested for their tumor-attacking efficacy in the mice, measured as tumor volume in time after start of the treatment with the ADCs. The dose of the ADCs was sub-optimal in the tumor model. That is to say, from previous experiments, it was established at which sub-optimal dose of the ADCs no tumor-regression or arrest of tumor growth would be observable.

[1] = system: MDA-MB-468 cells (EGFR++/CD71+); test: cell killing activity in MDA-MB-468 cells; assay type: cell-based, human
[2] = system: SK-BR-3 cells (HER2++/CD71+); test: cell killing activity in SK-BR-3 cells; assay type: cell-based, human; conditions: SK-BR-3, HER2 expressing; 1 target 2-components with trastuzumab-saporin

| Substance | outcome of the animals (death/euthanasia or survival) (human A431 tumor cells) | tumor size (volume) (human A431 tumor cells; tumors 170-180 mm^3 at start) [mm^3] | toxin-mediated cell killing ([1]; MDA-MB-468, high EGFR, 1 target 2-components with cetuximab-saporin) | cell killing activity, controls ([1]; MDA-MB-468, 2 target 2 components, treatments as labelled) | toxin-mediated cell killing [2] |
| --- | --- | --- | --- | --- | --- |
| Cetuximab-SO1861: cetuximab covalently conjugated with saponin SO1861 via EMCH linker to reduced cysteines | death/euthanasia | 2000 |  |  |  |
| Cetuximab: anti-EGFR monoclonal antibody [reference compound] | (death/euthanasia) |  | not induced | not induced |  |
| trastuzumab: anti-HER2 monoclonal antibody |  |  |  |  | not induced |
